Measurements from patent US20040091855A1, “Method for production of antivirals by use of HIV-derived HR1 peptides, and trimers formed therefrom” (priority 2002, published 2004).

How the values were obtained:
[1] = Sedimentation equilibrium experiments (oligomerization state); assay type: physicochemical; settings: in solution; peptide 1 μM to 100 μM
Experimental: Oligomerization state was assessed by using methods standard in the art for performing sedimentation equilibrium experiments and for analysis of the resultant data. In that regard, sedimentation equilibrium experiments were performed over a concentration range of synthetic peptide (1 μM to 100 μM) as follows. Briefly, six-channel cells (12 mm optical path length) were used with an An-60 Ti rotor operated at 13,500 rpm, 18,000 rpm, 22,000 rpm, and 35,000 rpm) in an analytical ultracentrifuge at 4C. The cell radii were scanned using 0.001 cm steps with 10 averages/scan at 3 different wavelengths (235 nm, 240 nm, 280 nm). Data obtained with solutions containing synthetic peptide was analyzed using a single species model to determine a weight-averaged molecular weight (MW). Diagnostic plots of MW/ MW0 vs. rpm/rpm0 and MW vs. radial concentration were used to test for sample homogeneity. When systemic residuals or a MW higher than monomer molecular weight indicated the presence of self-association, associative models were investigated. The suitability of a model (goodness of fit) was judged by the trends observed in the residuals.

[2] = Helicity by circular dichroism; assay type: physicochemical; settings: at 10 μM, 25° C.
Experimental: (§1) Helicity was assessed by circular dichroism (“CD”) as follows. Briefly, CD spectra were obtained using a spectrometer equipped with a thermoelectric temperature controller. The spectra was obtained at 25° C. with 0.5 nanometer (nm) steps from 200 to 260 nm, with a 1.5 nm bandwith, and a typical averaging time of 4 seconds/step. After the cell/buffer blank was subtracted, spectra were smoothed using a third-order least-squares polynomial fit with a conservative window size to give random residuals. Raw ellipticity values were converted to mean residue ellipticity using standard methods, and plotted was the wavelength (from 200 to 260 nm) versus [θ]×10^−3 (degrees cm^2/dmol). Percent helicity values were then calculated using standard methods. Assessment of thermal stability was performed by monitoring the change in CD signal at 222 nm as temperature was raised in 2° C. steps, with 1 minute equilibration times. The thermal stability for each sample (e.g., synthetic peptide) was represented by the transition temperature (Tm) determined by the derivative method.

[3] = Thermal stability (Tm) by CD signal at 222 nm; assay type: physicochemical; settings: at 10 μM
Experimental: as §1

[4] = tested on: HR2 peptide (SEQ ID NO:33); experiment: Fluorescence polarization assay of binding to labeled HR2 peptide; design: species or system HIV-1; settings: ability to complex with HR2 peptide denoted as yes
Description: These include a protein chip assay (using Biacore analysis) in which surface plasmon resonance is used to detect the binding, and kinetics thereof, between a synthetic peptide and an HR2 peptide; and a fluorescence polarization assay. In the fluorescence polarization assay, a detectable moiety comprising a fluorescent dye (e.g., rhodamine and/or fluorescein) was used to label HR2 peptide, and the assay was then allowed to proceed under sufficient conditions and for a sufficient period of time for labeled peptide to bind to HR1 peptide, or synthetic peptide (or trimer formed therefrom).

HIV IIIB = assay type: cell-based, HIV-1; settings: IIIB

Row | SMILES | Oligomerization [1] | Helicity [2] [%] | Stability Tm [3] | HR2 peptide binding [4] | Antiviral activity against HIV IIIB IC50 (HIV IIIB) [µg/mL] | Antiviral activity against HIV IIIB IC90 (HIV IIIB) [µg/mL]
1 | CC[C@H](C)[C@H](NC(=O)[C@H](Cc1ccc(O)cc1)NC(=O)[C@H](CCCNC(=N)N)NC(=O)[C@H](CCC(=O)O)NC(=O)[C@H](CC(C)C)NC(=O)[C@H](C)NC(=O)[C@H](CC(C)C)NC(=O)[C@@H](NC(=O)[C@H](CCCNC(=N)N)NC(=O)[C@H](C)NC(=O)[C@H](CCC(N)=O)NC(=O)[C@H](CC(C)C)NC(=O)[C@H](CCC(N)=O)NC(=O)[C@H](CCCCN)NC(=O)[C@@H](NC(=O)CNC(=O)[C@H](Cc1c[nH]c2ccccc12)NC(=O)[C@@H](NC(=O)[C@H](CC(C)C)NC(=O)[C@H](CC(C)C)NC(=O)[C@H](CCC(N)=O)NC(=O)[C@@H](NC(=O)[C@H](CC(C)C)NC(=O)[C@H](Cc1c[nH]cn1)NC(=O)[C@H](CCC(N)=O)NC(=O)[C@@H](NC(=O)[C@H](C)NC(=O)[C@H](CCC(=O)O)NC(=O)[C@H](CC(C)C)NC(=O)[C@H](C)NC(=O)[C@H](CCCNC(=N)N)NC(=O)[C@H](CC(C)C)NC(=O)[C@@H](NC(=O)[C@H](CC(N)=O)NC(=O)[C@H](CC(N)=O)NC(=O)[C@H](CCC(N)=O)NC(=O)[C@H](CCC(N)=O)NC(=O)[C@H](CCC(N)=O)NC(=O)[C@@H](NC(=O)[C@H](CC(C)C)NC(=O)CNC(=O)[C@H](CO)NC(=O)[C@@H](NC(=O)[C@H](CC(C)C)NC(=O)[C@H](CCC(N)=O)NC(=O)[C@H](CCCNC(=N)N)NC(=O)[C@H](C)NC(=O)[C@H](CCC(N)=O)NC(C)=O)C(C)C)C(C)C)[C@@H](C)CC)[C@@H](C)O)C(C)C)C(C)C)C(C)C)C(C)C)C(=O)N[C@@H](CCCCN)C(N)=O [SEQ ID NO:41] | Aggregates | 73 | >97 °C | Yes | 3.892 | 14.53
2 | CC[C@H](C)[C@H](NC(=O)CNC(=O)[C@H](Cc1c[nH]c2ccccc12)NC(=O)[C@@H](NC(=O)[C@@H](NC(=O)[C@H](CC(C)C)NC(=O)[C@H](CCC(N)=O)NC(=O)[C@H](CC(C)C)NC(=O)[C@H](CC(C)C)NC(=O)[C@H](Cc1c[nH]cn1)NC(=O)[C@H](CCC(N)=O)NC(=O)[C@H](CCC(N)=O)NC(=O)[C@H](C)NC(=O)[C@H](CCC(=O)O)NC(=O)[C@@H](NC(=O)[C@H](C)NC(=O)[C@H](CCCNC(=N)N)NC(=O)[C@H](CC(C)C)NC(=O)[C@H](CC(C)C)NC(=O)[C@H](CC(N)=O)NC(=O)[C@H](CC(N)=O)NC(=O)[C@H](CCC(N)=O)NC(=O)[C@H](CCC(N)=O)NC(=O)[C@H](CCC(N)=O)NC(C)=O)[C@@H](C)CC)[C@@H](C)O)C(C)C)C(=O)N[C@@H](CCCCN)C(=O)N[C@@H](CCC(N)=O)C(=O)N[C@@H](CC(C)C)C(=O)N[C@@H](CCC(N)=O)C(=O)N[C@@H](C)C(=O)N[C@@H](CCCNC(=N)N)C(=O)N[C@H](C(=O)N[C@@H](CC(C)C)C(=O)N[C@@H](C)C(=O)N[C@H](C(=O)N[C@@H](CCC(=O)O)C(=O)N[C@@H](CCCNC(=N)N)C(=O)N[C@@H](Cc1ccc(O)cc1)C(=O)N[C@@H](CC(C)C)C(=O)N[C@@H](CCCCN)C(=O)N[C@@H](CC(=O)O)C(=O)N[C@@H](CCC(N)=O)C(N)=O)C(C)C)[C@@H](C)CC [SEQ ID NO:27, reference compound] | Tetramer | 72 | Tm 76 °C | Yes | 4.69 | 23.24
3 | CC[C@H](C)[C@H](NC(=O)CNC(=O)[C@H](Cc1c[nH]c2ccccc12)NC(=O)[C@@H](NC(=O)[C@@H](NC(=O)[C@H](C)NC(=O)[C@H](CCC(N)=O)NC(=O)[C@H](CC(C)C)NC(=O)[C@H](CC(C)C)NC(=O)[C@H](Cc1c[nH]cn1)NC(=O)[C@H](CCC(N)=O)NC(=O)[C@H](CCC(N)=O)NC(=O)[C@H](C)NC(=O)[C@H](CCC(=O)O)NC(=O)[C@@H](NC(=O)[C@H](C)NC(=O)[C@H](CCCNC(=N)N)NC(=O)[C@H](CC(C)C)NC(=O)[C@H](CC(C)C)NC(=O)[C@H](CC(N)=O)NC(=O)[C@H](CC(N)=O)NC(=O)[C@H](CCC(N)=O)NC(=O)[C@H](CCC(N)=O)NC(=O)[C@H](CCC(N)=O)NC(C)=O)[C@@H](C)CC)[C@@H](C)O)C(C)C)C(=O)N[C@@H](CCCCN)C(=O)N[C@@H](CCC(N)=O)C(=O)N[C@@H](CC(C)C)C(=O)N[C@@H](CCC(N)=O)C(=O)N[C@@H](C)C(=O)N[C@@H](CCCNC(=N)N)C(=O)N[C@H](C(=O)N[C@@H](CC(C)C)C(=O)N[C@@H](C)C(=O)N[C@H](C(=O)N[C@@H](CCC(=O)O)C(=O)N[C@@H](CCCNC(=N)N)C(=O)N[C@@H](Cc1ccc(O)cc1)C(=O)N[C@@H](CC(C)C)C(=O)N[C@@H](CCCCN)C(=O)N[C@@H](CC(=O)O)C(=O)N[C@@H](CCC(N)=O)C(N)=O)C(C)C)[C@@H](C)CC [SEQ ID NO:48] | as a trimeric | 72 | Tm 68 °C | Yes | 0.89 | –
4 | CC[C@H](C)[C@H](NC(=O)CNC(=O)[C@H](Cc1c[nH]c2ccccc12)NC(=O)[C@@H](NC(=O)[C@@H](NC(=O)[C@H](C)NC(=O)[C@H](CCC(N)=O)NC(=O)[C@H](CC(C)C)NC(=O)[C@H](C)NC(=O)[C@H](Cc1c[nH]cn1)NC(=O)[C@H](CCC(N)=O)NC(=O)[C@H](CCC(N)=O)NC(=O)[C@H](C)NC(=O)[C@H](CCC(=O)O)NC(=O)[C@@H](NC(=O)[C@H](C)NC(=O)[C@H](CCCNC(=N)N)NC(=O)[C@H](CC(C)C)NC(=O)[C@H](CC(C)C)NC(=O)[C@H](CC(N)=O)NC(=O)[C@H](CC(N)=O)NC(=O)[C@H](CCC(N)=O)NC(=O)[C@H](CCC(N)=O)NC(=O)[C@H](CCC(N)=O)NC(=O)[C@@H](NC(=O)[C@@H](NC(=O)CNC(=O)[C@H](CO)NC(=O)[C@H](CC(C)C)NC(=O)[C@H](CC(C)C)NC(=O)[C@H](CCC(N)=O)NC(=O)[C@H](CCCNC(=N)N)NC(=O)[C@H](C)NC(=O)[C@H](CCC(N)=O)NC(C)=O)[C@@H](C)CC)C(C)C)[C@@H](C)CC)[C@@H](C)O)C(C)C)C(=O)N[C@@H](CCCCN)C(=O)N[C@@H](CCC(N)=O)C(=O)N[C@@H](CC(C)C)C(=O)N[C@@H](CCC(N)=O)C(=O)N[C@@H](C)C(=O)N[C@@H](CCCNC(=N)N)C(=O)N[C@H](C(=O)N[C@@H](CC(C)C)C(=O)N[C@@H](C)C(=O)N[C@H](C(=O)N[C@@H](CCC(=O)O)C(=O)N[C@@H](CCCNC(=N)N)C(=O)N[C@@H](Cc1ccc(O)cc1)C(=O)N[C@H](C(=O)N[C@@H](CCCCN)C(=O)N[C@@H](CC(=O)O)C(=O)N[C@@H](CCC(N)=O)C(N)=O)[C@@H](C)CC)C(C)C)[C@@H](C)CC [SEQ ID NO:40] | Trimer* | 53 | 62 °C | Yes | 0.41 | 1.84
5 | CC[C@H](C)[C@H](NC(=O)CNC(=O)[C@H](Cc1ccccc1)NC(=O)[C@@H](NC(=O)[C@@H](NC(=O)[C@H](CC(C)C)NC(=O)[C@H](CCC(N)=O)NC(=O)[C@H](CC(C)C)NC(=O)[C@H](CC(C)C)NC(=O)[C@H](Cc1c[nH]cn1)NC(=O)[C@H](CCC(N)=O)NC(=O)[C@H](CCC(N)=O)NC(=O)[C@H](C)NC(=O)[C@H](CCC(=O)O)NC(=O)[C@@H](NC(=O)[C@H](C)NC(=O)[C@H](CCCNC(=N)N)NC(=O)[C@H](CC(C)C)NC(=O)[C@H](CC(C)C)NC(=O)[C@H](CC(N)=O)NC(=O)[C@H](CC(N)=O)NC(=O)[C@H](CCC(N)=O)NC(=O)[C@H](CCC(N)=O)NC(=O)[C@H](CCC(N)=O)NC(C)=O)[C@@H](C)CC)[C@@H](C)O)C(C)C)C(=O)N[C@@H](CCCCN)C(=O)N[C@@H](CCC(N)=O)C(=O)N[C@@H](CC(C)C)C(=O)N[C@@H](CCC(N)=O)C(=O)N[C@@H](C)C(=O)N[C@@H](CCCNC(=N)N)C(=O)N[C@H](C(=O)N[C@@H](CC(C)C)C(=O)N[C@@H](C)C(=O)N[C@H](C(=O)N[C@@H](CCC(=O)O)C(=O)N[C@@H](CCCNC(=N)N)C(=O)N[C@@H](Cc1ccc(O)cc1)C(=O)N[C@@H](CC(C)C)C(=O)N[C@@H](CCCCN)C(=O)N[C@@H](CC(=O)O)C(=O)N[C@@H](CCC(N)=O)C(N)=O)C(C)C)[C@@H](C)CC [SEQ ID NO:43] | Trimer** | 94 | Tm 74 °C | Yes | 1.34 | 3.81
